This note sets out measurements from article PMC3278406 (PLoS ONE, 2012).

One test concerns the target Stx1B (Stx1 B-subunits) (Bacteriophage H30, UniProt P69178). The experiment in a line: Isothermal titration calorimetry, glycan titrated into Stx1 B-subunits. Particulars: ITC. In kind it is binding, Escherichia coli O157:H7. For orientation: In ITC the heat of successive injections is recorded.
For another test, the target named is Stx2B (Stx2 B-subunits) (Escherichia phage 933W, UniProt P09386). Nature of the test: Isothermal titration calorimetry, glycan titrated into Stx2 B-subunits. In kind it is binding, Escherichia coli O157:H7. Particulars: ITC.

The structures appear in SMILES notation. pKd: −log10 of the molar value. The match of structure and compound is tentative.

The term pKd denotes the Kd on a negative log10 scale, so that one unit is a factor of ten. For the compound `CC(=O)N[C@H]1[C@H](O[C@H]2[C@@H](O)[C@@H](CO)O[C@H](O[C@@H]3[C@H](O)[C@@H](O)[C@H](O[C@H]4[C@H](O)[C@@H](O)C(O)O[C@@H]4CO)O[C@@H]3CO)[C@@H]2O)O[C@H](CO)[C@H](O)[C@@H]1O` (stereo partly shown), at Stx1B (Stx1 B-subunits) (Stx1B), the “fold lower affinity compared to Gb3” value is on record as “about 3 fold”. Moreover, the pKd at Stx1B (Stx1 B-subunits) (read-out: Kd of Stx1B for glycan, 25°C, one-site model, n = 1 per B subunit) was 1.92; on Stx2B (Stx2 B-subunits) (read-out: Kd of Stx2B for glycan, bound suggested from absence of binding), under 1.92. The “binding of Stx2B to glycan” value on Stx2B (Stx2 B-subunits) (25°C, glycan 50 mM) was “no binding”.
